In US20230331823A1:

B1: ShAb01-Foldon (ShAb01 VNAR-KESlinker-Foldon-3c-His8-Strep) (protein)
chain: ARVDQTPRSVTKETGESLTINCVLRDSNCALSSTHWYRKKSGSTNEERILQGRRYVETVNSGSKSFSLRINDLRVEDSGTYRCKVYWGNSWQDKFCPGLGSYEYGDGTAVTVNKESGSVSSEQLAQFRSGDGYIPEAPRDGQAYVRKDGEWVLLSTFLGRSLEVLFQGPGHHHHHHHHSAWSHPQFEK
B2: ShAb02-Foldon (ShAb02 VNAR-KESlinker-Foldon-3c-His8-Strep) (protein)
chain: ARVDQTPQTITKETGESLTINCVLRDSNCALASTDWYRKKSGSTNEESISKGGRYVETVNSGSKSFSLRINDLTVEDSGTYRCNAWDSWETRQLKCDYDVYGGGTVVTVNKESGSVSSEQLAQFRSGDGYIPEAPRDGQAYVRKDGEWVLLSTFLGRSLEVLFQGPGHHHHHHHHSAWSHPQFEK

Target: SARS-CoV-1 Spike (Urbani) on pseudovirions (SARS-CoV-1), P59594
Assay: cell-based or functional assay

Row | Binder | pseudovirus neutralization IC50 [µg/mL] | pseudovirus neutralization IC80 [µg/mL]
1 | B1 | 0.404 | 1.91
2 | B2 | > 5 | > 5
